Anti-infective test results gathered from many reports (values: NIAID ChemDB through PubChem).

Common to all: whole-cell or culture tests; species: Hepatitis B virus; cell line: HepG2.2.15; read-out: EC50

a–b is a range or a potency band. Blank or dashed fields: not listed here. ECn: concentration that inhibits the pathogen or its effect by n%. Rows are shuffled and stem from different studies.

compound,method,result
CCC1=C(C(=O)OC)C(c2ccccc2Cl)N=C(c2ccccn2)N1,,6–10 µM
C#CC1(NC(=O)C(=O)c2c(C)c(C(=O)Nc3ccc(F)c(C#N)c3)n(C)c2Cl)COC1,PCR,<0.001 µM
[2H][C@@]1(c2cccc(F)c2C)N=C(c2nccs2)NC(CN2CC(F)(F)[C@@H]3[C@H]2CON3C[C@H](O)C(C)(C)C(=O)O)=C1C(=O)OCC,PCR,0.055 µM
CC(C)NC(=O)c1c2n(c(=O)n1-c1ccccc1)CCN(C(=O)Nc1ccc(F)c(Cl)c1)C2,PCR,0.5–5 µM
COC(=O)C1=C(C(F)(F)F)NC(c2ccccn2)=NC1c1ccccc1Cl,,>100 µM
O=C(NCc1ccccc1-c1ncccc1F)c1c2n(c(=O)n1-c1ccc(OC3CC3)cc1)CCN(C(=O)c1ccc(Br)c(Cl)c1)C2,PCR,0.1–0.5 µM
CCOC(=O)C1=C(CN2CC(F)(F)[C@@H]3[C@H]2CON3C[C@H](O)C(C)(C)C(=O)O)NC(c2nccs2)=N[C@H]1c1ccc(F)c(F)c1Cl,PCR,0.013 µM
CC1=C(C(=O)O)C(c2ccccc2Cl)N=C(c2ccccn2)N1,,>100 µM
C/C=C(/C)C(=O)Oc1c2c(cc3c1-c1c(cc(OC)c(OC)c1OC)C[C@](C)(O)[C@@H](C)C3)OCO2,ELISA / antigen,32.89 µg/mL
Cc1c(C(=O)C(=O)NC2(c3cn[nH]c3)COC2)c(C)n(C)c1C(=O)Nc1ccc(F)c(C(F)(F)F)c1,PCR,<0.001 µM
COc1ccc(CN2CCn3c(c4n(c3=O)CCN(C(=O)Nc3ccc(F)c(Cl)c3)C4)C2=O)cc1,PCR,>5 µM
CCCCOC(=O)C1=C(C)NC(c2ccccn2)=NC1c1ccccc1Cl,,>6 µM
C=CC1(NC(=O)C(=O)c2c(Cl)c(C(=O)Nc3ccc(F)c(C#N)c3)n(C)c2C)CC(F)(F)C1,PCR,<0.001 µM
C/C=C(/C)C(=O)Oc1c(OC)c(OC)cc2c1-c1c(cc3c(c1OC)OCO3)C[C@H](C)[C@@](C)(O)C2,ELISA / antigen,31.96 µg/mL
COC(=O)C1=C(CN2CC(F)(F)[C@@H]3[C@H]2CON3C[C@@H](F)C(C)(C)C(=O)O)NC(c2nccs2)=N[C@H]1c1ccc(F)cc1Cl,PCR,0.019 µM
C=CCNC(=O)C(=O)c1c(F)c(C(=O)Nc2ccc(F)c(C#N)c2)n(C)c1C,PCR,0.001–0.0099 µM
CCOC(=O)C1=C(CN2CC(F)(F)[C@@H]3[C@H]2CON3C[C@@H](OC)C(C)(C)C(=O)O)NC(c2nccs2)=N[C@H]1c1ccc(F)c(F)c1Cl,PCR,0.001 µM
COC(=O)C1=C(C)NC(c2ccccn2)=NC1c1ccccc1[N+](=O)[O-],,20 µM
C[C@@H](NC(=O)c1c2n(c(=O)n1-c1ccc(OC3CC3)cc1)CCN(C(=O)c1ccc(Br)c(Cl)c1)C2)c1ccccc1-n1cncn1,PCR,0.5–5 µM
COC(=O)C1=C(C)NC(c2ccccc2)=N[C@H]1c1ccc(F)cc1Cl,,>100 µM
C/C=C(/C)C(=O)Oc1c(OC)c(OC)cc2c1-c1c(cc(OC)c(OC)c1OC)C[C@H](C)[C@H](C)C2,ELISA / antigen,<9.73 µg/mL
CC1=C(C(=O)OCCN(C)c2ccccc2)C(c2ccccc2Cl)N=C(c2ccccn2)N1,,>25 µM
CN1CCCn2c(c3n(c2=O)CCN(C(=O)c2ccc(Br)c(Cl)c2)C3)C1=O,PCR,>5 µM

The last 3 rows once more:

compound	method	result
C/C=C(/C)C(=O)Oc1c(OC)c(OC)cc2c1-c1c(cc(OC)c(OC)c1OC)C[C@H](C)[C@H](C)C2	ELISA / antigen	<9.73 µg/mL
CC1=C(C(=O)OCCN(C)c2ccccc2)C(c2ccccc2Cl)N=C(c2ccccn2)N1		>25 µM
CN1CCCn2c(c3n(c2=O)CCN(C(=O)c2ccc(Br)c(Cl)c2)C3)C1=O	PCR	>5 µM